The exact form of at least one protein or probe is not confirmed.
Biological target: Fur (UniProt O25671)
Test: DNase I footprinting
Details: 10 mM Tris-Cl pH 7.85, 50 mM NaCl, 10 mM KCl, 0.02% Igepal CA-630, 10% glycerol, 5 mM DTT, 150 uM (NH4)2Fe(SO4)2 or 150 uM 2,2-dipyridyl, 300 ng salmon sperm DNA, recombinant protein, protein details: His6 N-terminal tag removed by thrombin, label: 5'-32P at NcoI end, probe letters rebuilt from the primers and the genome, part of a longer molecule
[1] = holo-Fur, 150 uM (NH4)2Fe(SO4)2

Sequences of proteins named here, by UniProt entry; tags and fusion partners are left off. A line that says so, or that is headed by a name, gives the form on record, which may keep a tag or linker. Residues count along the entry.
UniProt O25671, 1-149, tags or fused parts left off: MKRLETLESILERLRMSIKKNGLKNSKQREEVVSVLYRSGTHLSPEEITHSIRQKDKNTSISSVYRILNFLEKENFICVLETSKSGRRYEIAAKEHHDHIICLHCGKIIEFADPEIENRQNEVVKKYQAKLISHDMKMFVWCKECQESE

| Sequence | binding result (apo-Fur, 150 uM 2,2-dipyridyl) | binding result [1] |
| --- | --- | --- |
| TACCTAGTTTCATACCTATCGGTATCTTGTTGGTATCAAAGACTGCTAAAAACTGCTACACACTTGAGTAATCAATTCATGTCTTTGAACATTACCATTATACCACAATAATCAAGATCAAGCATTTTTTTTTCATTAATCATTATTAATATTGAAAAAAGCCCGATCGTTGCAGGCGTCTAAAGGCTAGGAACGATTCACATTTTTACCCACAATTAACAAAAATTTGCTAAAATGAACGAATTTTAACAAAGAAAAGAAATAAGAAATGAACCTTCAAGAATAAATCAAATGCAATGCTTAAATATAGTTGGAATCAAGGTGAGTGCATGAAGCGTTCTAAAAATGGTTTGGTTTGTGTGTCATGCTTACCATAAAGTATATA (double strand) [PcagA-PcagB intergenic probe, operator IV] | binds |  |
| TACCTAGTTTCATACCTATCGGTATCTTGTTGGTATCAAAGACTGCTAAAAACTGCTACACACTTGAGTAATCAATTCATGTCTTTGAACATTACCATTATACCACAATAATCAAGATCAAGCATTTTTTTTTCATTAATCATTATTAATATTGAAAAAAGCCCGATCGTTGCAGGCGTCTAAAGGCTAGGAACGATTCACATTTTTACCCACAATTAACAAAAATTTGCTAAAATGAACGAATTTTAACAAAGAAAAGAAATAAGAAATGAACCTTCAAGAATAAATCAAATGCAATGCTTAAATATAGTTGGAATCAAGGTGAGTGCATGAAGCGTTCTAAAAATGGTTTGGTTTGTGTGTCATGCTTACCATAAAGTATATA (double strand) [PcagA-PcagB intergenic probe, operator I] | binds |  |
| TACCTAGTTTCATACCTATCGGTATCTTGTTGGTATCAAAGACTGCTAAAAACTGCTACACACTTGAGTAATCAATTCATGTCTTTGAACATTACCATTATACCACAATAATCAAGATCAAGCATTTTTTTTTCATTAATCATTATTAATATTGAAAAAAGCCCGATCGTTGCAGGCGTCTAAAGGCTAGGAACGATTCACATTTTTACCCACAATTAACAAAAATTTGCTAAAATGAACGAATTTTAACAAAGAAAAGAAATAAGAAATGAACCTTCAAGAATAAATCAAATGCAATGCTTAAATATAGTTGGAATCAAGGTGAGTGCATGAAGCGTTCTAAAAATGGTTTGGTTTGTGTGTCATGCTTACCATAAAGTATATA (double strand) [PcagA-PcagB intergenic probe, operator III] |  | binds |
| TACCTAGTTTCATACCTATCGGTATCTTGTTGGTATCAAAGACTGCTAAAAACTGCTACACACTTGAGTAATCAATTCATGTCTTTGAACATTACCATTATACCACAATAATCAAGATCAAGCATTTTTTTTTCATTAATCATTATTAATATTGAAAAAAGCCCGATCGTTGCAGGCGTCTAAAGGCTAGGAACGATTCACATTTTTACCCACAATTAACAAAAATTTGCTAAAATGAACGAATTTTAACAAAGAAAAGAAATAAGAAATGAACCTTCAAGAATAAATCAAATGCAATGCTTAAATATAGTTGGAATCAAGGTGAGTGCATGAAGCGTTCTAAAAATGGTTTGGTTTGTGTGTCATGCTTACCATAAAGTATATA (double strand) [PcagA-PcagB intergenic probe, operator II] |  | binds |
